Pooled drug test results. Numbers come from NIAID ChemDB, via PubChem.

All rows: growth or infection tests; agent: Mycobacterium avium complex

Lines come from different laboratories, so protocols vary. A number after MIC or MFC names an inhibition level or a share of isolates.

| SMILES | endpoint | strain or isolate | value |
|---|---|---|---|
| CCCCCCCCCCCCCCCCO/N=C1\[C@H](C)CC(C)(O)[C@H](O[C@@H]2O[C@H](C)C[C@H](N(C)C)[C@H]2O)[C@@H](C)[C@H](OC2C[C@@](C)(OC)[C@@H](O)[C@H](C)O2)[C@@H](C)C(=O)O[C@H](CC)[C@@](C)(O)[C@H](O)[C@H]1C | MIC | 20096 | >50 µg/mL |
| CCCCCCCCO[C@@H]1O[C@H]([C@@H](CO)O[C@H]2O[C@H](CO)[C@@H](O)[C@@H]2O)[C@H](O)[C@H]1O | MIC | NJ168 | >128 µg/mL |
| CC[C@H]1OC(=O)[C@H](C)[C@@H](O[C@H]2C[C@@](C)(OC)[C@@H](O)[C@H](C)O2)[C@H](C)[C@@H](O[C@@H]2O[C@H](C)C[C@H](N(C)C)[C@H]2O)[C@](C)(OC)C[C@@H](C)C(=O)[C@H](C)[C@@H](O)[C@]1(C)O | MIC | Isolate 90-0804 | 3 µg/mL |
| CC[C@H]1OC(=O)[C@H](C)[C@@H](O[C@H]2C[C@@](C)(OC)[C@@H](O)[C@H](C)O2)[C@H](C)[C@@H](O[C@@H]2O[C@H](C)C[C@H](N(C)C)[C@H]2O)[C@](C)(O)C[C@@H](C)/C(=N\OCOCCOC)[C@H](C)[C@@H](O)[C@]1(C)O | MIC | CIPT 140310002 | 1 µg/mL |
| CC[C@H]1OC(=O)[C@H](C)[C@@H](OC2C[C@@](C)(OC)[C@@H](O)[C@H](C)O2)[C@H](C)[C@@H](O[C@@H]2O[C@H](C)C[C@H](N(C)C)[C@H]2O)C(C)(O)C[C@@H](C)/C(=N\OCCCCOc2ccccc2)[C@H](C)[C@@H](O)[C@]1(C)O | MIC | 20039 | 1.56 µg/mL |
| CCCCCNC(=O)O[C@H]1C(O[C@@H]2[C@@H](C)[C@H](O[C@H]3C[C@@](C)(OC)[C@@H](OC(C)=O)[C@H](C)O3)[C@@H](C)C(=O)O[C@H](CC)[C@@](C)(O)[C@H](O)[C@@H](C)/C(=N/OCCCC3CCCCC3)[C@H](C)CC2(C)O)O[C@H](C)C[C@@H]1N(C)C | MIC | 20034 | 0.1 µg/mL |
| COc1ccc(OC)c(SCc2cnc3nc(N)nc(N)c3c2C)c1 | MIC | NJ3404 | ≤0.13 µg/mL |
| CCCCCCCCO[C@H]1OC(CO[C@H]2O[C@H](COCc3ccccc3)[C@@H](OCc3ccccc3)[C@@H]2OCc2ccccc2)[C@@H](OC)[C@@H]1OC | MIC | NJ211 | >128 µg/mL |
| CC[C@H]1OC(=O)[C@H](C)[C@@H](O[C@H]2C[C@@](C)(OC)[C@@H](OC(C)=O)[C@H](C)O2)[C@H](C)[C@@H](O[C@@H]2O[C@H](C)C[C@H](N(C)C)[C@H]2OC(=O)NNCc2ccccc2OC)C(C)(O)C[C@@H](C)/C(=N\OCCCC2CCCCC2)[C@H](C)[C@@H](O)[C@]1(C)O | MIC | 20096 (clarithromycin-resistant) | 0.39 µg/mL |
| COc1cc(NCc2cnc3nc(N)nc(N)c3c2C)cc(OC)c1OC | MIC | NJ211 | ≤0.13 µg/mL |
| CCCCCCCCCCCCO/N=C1\[C@H](C)CC(C)(O)[C@H](O[C@@H]2O[C@H](C)C[C@H](N(C)C)[C@H]2O)[C@@H](C)[C@H](OC2C[C@@](C)(OC)[C@@H](O)[C@H](C)O2)[C@@H](C)C(=O)O[C@H](CC)[C@@](C)(O)[C@H](O)[C@H]1C | MIC | 20096 | 25 µg/mL |
| CC[C@H]1OC(=O)[C@H](C)[C@@H](O[C@H]2C[C@@](C)(OC)[C@@H](O)[C@H](C)O2)[C@H](C)[C@@H](O[C@@H]2O[C@H](C)C[C@H](N(C)C)[C@H]2O)[C@](C)(OC)C[C@@H](C)C(=O)[C@H](C)[C@@H](O)[C@]1(C)O | MIC | 20092 (clarithromycin-resistant) | >50 µg/mL |
| CCCOc1ccc(OCC)cc1NCc1cnc2nc(N)nc(N)c2c1C | MIC | NJ211 | 0.25 µg/mL |
| CC[C@H]1OC(=O)[C@H](C)[C@@H](O[C@H]2C[C@@](C)(OC)[C@@H](O)[C@H](C)O2)[C@H](C)[C@@H](O[C@@H]2O[C@H](C)C[C@H](N(C)C)[C@H]2O)[C@](C)(OC)C[C@@H](C)C(=O)[C@H](C)[C@@H](O)[C@]1(C)O | MIC50 | 20 strains | 8 µg/mL |
| CC[C@H]1OC(=O)[C@H](C)[C@@H](OC2C[C@@](C)(OC)[C@@H](O)[C@H](C)O2)[C@H](C)[C@@H](O[C@@H]2O[C@H](C)C[C@H](N(C)C)[C@H]2O)C(C)(O)C[C@@H](C)/C(=N\OCc2ccccc2)[C@H](C)[C@@H](O)[C@]1(C)O | MIC | 20092 | >50 µg/mL |
| CC[C@H]1OC(=O)C[C@@H](O)[C@H](C)[C@@H](O[C@@H]2O[C@H](C)[C@H](O)[C@H](N(C)C)[C@H]2O)[C@@H](CC=O)C[C@@H](C)C(=O)/C=C/C(C)=C/[C@@H]1COC(C)=O | MIC50 | 28 strains | ≥64 µg/mL |
| CC(C)N=C(N)/N=C(\N)Nc1ccc(Cl)cc1 | MIC | 101 | >128 µg/mL |
| COc1ccc(OC)c(NCc2cnc3nc(N)nc(N)c3c2C)c1 | MIC | NJ3404 | ≤0.13 µg/mL |
| CC[C@H]1OC(=O)[C@H](C)[C@@H](O[C@H]2C[C@@](C)(OC)[C@@H](O)[C@H](C)O2)[C@H](C)[C@@H](O[C@@H]2O[C@H](C)C[C@H](N(C)C)[C@H]2O)[C@](C)(O)C[C@@H](C)C(NCCOC)[C@H](C)[C@@H](O)[C@]1(C)O | MIC90 | 28 strains | ≥64 µg/mL |
| CCCCCCCCO[C@@H]1O[C@H]([C@@H](COCc2ccccc2)O[C@H]2O[C@H](CO)[C@@H](O)[C@@H]2O)[C@H](OCc2ccccc2)[C@H]1OCc1ccccc1 | MIC | NJ168 | >128 µg/mL |
| CC(C)N=C(N)N(OCCCOc1cc(Cl)c(Cl)cc1Cl)C(=N)N | MIC | FAR | 32 µg/mL |
| CCc1c(CNc2cc(C(F)(F)F)ccc2OC)cnc2nc(N)nc(N)c12 | MIC | NJ211 | ≤0.13 µg/mL |
| CC[C@H]1OC(=O)[C@H](C)[C@@H](OC2C[C@@](C)(OC)[C@@H](O)[C@H](C)O2)[C@H](C)[C@@H](O[C@@H]2O[C@H](C)C[C@H](N(C)C)[C@H]2O)C(C)(O)C[C@@H](C)/C(=N\OCC2CCCCC2)[C@H](C)[C@@H](O)[C@]1(C)O | MIC | 20039 | 1.56 µg/mL |
| CC[C@H]1OC(=O)[C@H](C)[C@@H](O[C@H]2C[C@@](C)(OC)[C@@H](OC(C)=O)[C@H](C)O2)[C@H](C)[C@@H](OC2O[C@H](C)C[C@H](N(C)C)[C@H]2OC(N)=O)C(C)(O)C[C@@H](C)/C(=N\OCCCC2CCCCC2)[C@H](C)[C@@H](O)[C@]1(C)O | MIC | 20096 | >50 µg/mL |
| CC[C@H]1OC(=O)[C@H](C)[C@@H](OC2C[C@@](C)(OC)[C@@H](O)[C@H](C)O2)[C@H](C)[C@@H](O[C@@H]2O[C@H](C)C[C@H](N(C)C)[C@H]2O)C(C)(O)C[C@@H](C)/C(=N\OCCCc2ccccc2)[C@H](C)[C@@H](O)[C@]1(C)O | MIC | 20039 (clarithromycin-susceptible) | 1.56 µg/mL |
| CC[C@H]1OC(=O)[C@H](C)[C@@H](OC2C[C@@](C)(OC)[C@@H](O)[C@H](C)O2)[C@H](C)[C@@H](O[C@@H]2O[C@H](C)C[C@H](N(C)C)[C@H]2O)C(C)(OC)C[C@@H](C)/C(=N\OCCCOc2ccccc2)[C@H](C)[C@@H](O)[C@]1(C)O | MIC | 20096 | 6.25 µg/mL |
| CC[C@H]1OC(=O)[C@H](C)[C@@H](O[C@H]2C[C@@](C)(OC)[C@@H](O)[C@H](C)O2)[C@H](C)[C@@H](O[C@@H]2O[C@H](C)C[C@H](N(C)C)[C@H]2O)[C@](C)(O)C[C@@H](C)CN(C)[C@H](C)[C@@H](O)[C@]1(C)O | MIC50 | 28 strains | 16 µg/mL |
| CC[C@H]1OC(=O)[C@H](C)[C@@H](OC2C[C@@](C)(OC)[C@@H](O)[C@H](C)O2)[C@H](C)[C@@H](O[C@@H]2O[C@H](C)C[C@H](N(C)C)[C@H]2O)C(C)(O)C[C@@H](C)/C(=N\OCCCOc2ccccc2)[C@H](C)[C@@H](O)[C@]1(C)O | MIC | 20092 | 3.13 µg/mL |
| CCCCCCCCO[C@H]1OC([C@@H](COC)O[C@H]2O[C@H]([C@@H](O)CO)[C@@H](O)[C@@H]2O)[C@@H](OC)[C@@H]1OC | MIC | NJ211 | >12.8 µg/mL |
| CC[C@H]1OC(=O)[C@H](C)[C@@H](O[C@H]2C[C@@](C)(OC)[C@@H](OC(C)=O)[C@H](C)O2)[C@H](C)[C@@H](OC2O[C@H](C)C[C@H](N(C)C)[C@H]2OC(=O)NCC(=O)NC)C(C)(O)C[C@@H](C)/C(=N\OCCCC2CCCCC2)[C@H](C)[C@@H](O)[C@]1(C)O | MIC | 20092 | 0.78 µg/mL |
| CO[C@H]1/C=C/O[C@@]2(C)Oc3c(C)c(O)c4c(O)c(c5c(c4c3C2=O)NC2(CCN(CC(C)C)CC2)N=5)=NC(=O)/C(C)=C\C=C\[C@H](C)[C@H](O)[C@@H](C)[C@@H](O)[C@@H](C)[C@H](OC(C)=O)[C@@H]1C | MBC | 800-4 | 1 µg/mL |
| CCCCCCCCO[C@H]1OC(CO[C@H]2O[C@H](CO)[C@@H](O)[C@@H]2OCc2ccccc2)[C@@H](OCc2ccccc2)[C@@H]1OCc1ccccc1 | MIC | NJ211 | >128 µg/mL |
| COc1cccc(SCc2cnc3nc(N)nc(N)c3c2C)c1 | MIC | NJ3404 | ≤0.13 µg/mL |
| CCCCCCCCO[C@@H]1O[C@H]([C@@H](COC)O[C@H]2O[C@H](CO)[C@@H](O)[C@@H]2O)[C@H](OC)[C@H]1OC | MIC | NJ168 | >128 µg/mL |
| CCCCCCCCCCCCCCNNC(=O)O[C@H]1[C@H](O[C@@H]2[C@@H](C)[C@H](O[C@H]3C[C@@](C)(OC)[C@@H](OC(C)=O)[C@H](C)O3)[C@@H](C)C(=O)O[C@H](CC)[C@@](C)(O)[C@H](O)[C@@H](C)/C(=N/OCCCC3CCCCC3)[C@H](C)CC2(C)O)O[C@H](C)C[C@@H]1N(C)C | MIC | 20092 (clarithromycin-resistant) | >50 µg/mL |
| CC[C@H]1OC(=O)[C@H](C)[C@@H](OC2C[C@@](C)(OC)[C@@H](O)[C@H](C)O2)[C@H](C)[C@@H](O[C@@H]2O[C@H](C)C[C@H](N(C)C)[C@H]2O)C(C)(O)C[C@@H](C)/C(=N\OCCOc2ccccc2)[C@H](C)[C@@H](O)[C@]1(C)O | MIC | 20092 | 12.5 µg/mL |
| CCCCNC(=O)O[C@H]1C(O[C@@H]2[C@@H](C)[C@H](O[C@H]3C[C@@](C)(OC)[C@@H](OC(C)=O)[C@H](C)O3)[C@@H](C)C(=O)O[C@H](CC)[C@@](C)(O)[C@H](O)[C@@H](C)/C(=N/OCCCC3CCCCC3)[C@H](C)CC2(C)O)O[C@H](C)C[C@@H]1N(C)C | MIC | 20092 | 0.1 µg/mL |
| CCCCCCCCO[C@@H]1O[C@@H](C(COCc2ccccc2)O[C@@H]2O[C@@H](C(COC(C)=O)OC(C)=O)[C@H](OC(C)=O)[C@H]2OC(C)=O)[C@H](OCc2ccccc2)[C@H]1OCc1ccccc1 | MIC | NJ304 | >128 µg/mL |
| Cc1c(CNc2cccc3c2CCCC3)cnc2nc(N)nc(N)c12 | MIC | NJ3404 | ≤0.13 µg/mL |
| CC[C@H]1OC(=O)C[C@@H](O)[C@H](C)[C@@H](O[C@@H]2O[C@H](C)[C@H](O)[C@H](N(C)C)[C@H]2O)[C@@H](CCOc2ccccc2)C[C@@H](C)C(=O)/C=C/C(C)=C/[C@@H]1COC1O[C@H](C)[C@@H](O)[C@@H](OC)[C@H]1OC | MIC50 | 28 strains | ≥64 µg/mL |
| CCCCCCCCO[C@@H]1O[C@@H](C(CO[C@@H]2O[C@@H](C(O)CO)[C@H](O)[C@H]2O)OC)[C@H](OC)[C@H]1OC | MIC | NJ168 | >128 µg/mL |
| CCNC(=O)O[C@H]1C(O[C@@H]2[C@@H](C)[C@H](O[C@H]3C[C@@](C)(OC)[C@@H](OC(C)=O)[C@H](C)O3)[C@@H](C)C(=O)O[C@H](CC)[C@@](C)(O)[C@H](O)[C@@H](C)/C(=N/OCCCC3CCCCC3)[C@H](C)CC2(C)O)O[C@H](C)C[C@@H]1N(C)C | MIC | 20092 | >50 µg/mL |

For reference, 5 entries again:

CC[C@H]1OC(=O)[C@H](C)[C@@H](O[C@H]2C[C@@](C)(OC)[C@@H](OC(C)=O)[C@H](C)O2)[C@H](C)[C@@H](OC2O[C@H](C)C[C@H](N(C)C)[C@H]2OC(=O)NCC(=O)NC)C(C)(O)C[C@@H](C)/C(=N\OCCCC2CCCCC2)[C@H](C)[C@@H](O)[C@]1(C)O ; endpoint: MIC ; strain or isolate: 20092 ; value: 0.78 µg/mL
CCCCNC(=O)O[C@H]1C(O[C@@H]2[C@@H](C)[C@H](O[C@H]3C[C@@](C)(OC)[C@@H](OC(C)=O)[C@H](C)O3)[C@@H](C)C(=O)O[C@H](CC)[C@@](C)(O)[C@H](O)[C@@H](C)/C(=N/OCCCC3CCCCC3)[C@H](C)CC2(C)O)O[C@H](C)C[C@@H]1N(C)C ; endpoint: MIC ; strain or isolate: 20092 ; value: 0.1 µg/mL
CC[C@H]1OC(=O)[C@H](C)[C@@H](O[C@H]2C[C@@](C)(OC)[C@@H](OC(C)=O)[C@H](C)O2)[C@H](C)[C@@H](OC2O[C@H](C)C[C@H](N(C)C)[C@H]2OC(N)=O)C(C)(O)C[C@@H](C)/C(=N\OCCCC2CCCCC2)[C@H](C)[C@@H](O)[C@]1(C)O ; endpoint: MIC ; strain or isolate: 20096 ; value: >50 µg/mL
CC[C@H]1OC(=O)C[C@@H](O)[C@H](C)[C@@H](O[C@@H]2O[C@H](C)[C@H](O)[C@H](N(C)C)[C@H]2O)[C@@H](CC=O)C[C@@H](C)C(=O)/C=C/C(C)=C/[C@@H]1COC(C)=O ; endpoint: MIC50 ; strain or isolate: 28 strains ; value: ≥64 µg/mL
CC[C@H]1OC(=O)[C@H](C)[C@@H](O[C@H]2C[C@@](C)(OC)[C@@H](O)[C@H](C)O2)[C@H](C)[C@@H](O[C@@H]2O[C@H](C)C[C@H](N(C)C)[C@H]2O)[C@](C)(OC)C[C@@H](C)C(=O)[C@H](C)[C@@H](O)[C@]1(C)O ; endpoint: MIC ; strain or isolate: 20092 (clarithromycin-resistant) ; value: >50 µg/mL